The results in this text go back to article PMC8809408 (Frontiers in Pharmacology, 2022).

In the assay the test system is pseudotyped lentiviruses harboring S-protein of SARS-CoV-2. It is filed as cell-based.
On to `CN(C)CCCN1c2ccccc2Sc2ccc(Cl)cc21` [Chlorpromazine], for which the “selectivity index (SI)” value is 16.31. As for `CNCCCN1c2ccccc2CCc2ccccc21` [Desipramine], the “selectivity index (SI)” value worked out at 8.50. As to `O=c1[nH]c2ccccc2n1C1CCN(CCCC(c2ccc(F)cc2)c2ccc(F)cc2)CC1` [Pimozide], the “selectivity index (SI)” value was 3.31.
